Pooled drug test results. Numbers come from NIAID ChemDB, via PubChem.

Shared fields: host cell toxicity; cells: MT-2; endpoint: CC50

An empty or dashed field is not shown. CCn: concentration that lowers growth or viability of the cells by n%. Conditions beyond the fields shown may differ between rows.

structure	read by	value
Cc1ccc(-c2c(C(OC(C)(C)C)C(=O)O)c(C)nc3sc4c(c23)CCOC4)cc1		>20 µM
CN(C(=O)[C@H](Cc1ccccc1)NC(=O)c1ccnc(N[C@@H](Cc2ccccc2)C(=O)N(C)c2ccc3scnc3c2)n1)c1ccc2scnc2c1	XTT	100 µM
Cc1nc2sc3c(c2c(-c2ccc(C(F)(F)F)nc2)c1C(OC(C)(C)C)C(=O)O)CCCC3		>20 µM
O=C1NC(=O)C(CSc2ccccc2)(CSc2ccccc2)N1		>50 µM
CN(C(=O)[C@H](Cc1cc(F)cc(F)c1)NC(=O)CN1c2ccccc2N(CC(=O)N[C@@H](Cc2cc(F)cc(F)c2)C(=O)N(C)c2ccc3sncc3c2)S1(=O)=O)c1ccc2sncc2c1	XTT	100 µM
O=C1NC(=O)C(CSCCO)(CSCc2ccccc2)N1		>50 µM
Cc1c(CCO)c(C2CC2)nn1C(C)C(=O)N[C@@H](Cc1ccccc1)C(=O)N(C)c1ccc2c(c1)OCO2	ATP	>20 µM
Cc1nc2sc3c(c2c(-c2ccc(C(F)(F)F)cc2)c1[C@H](OC(C)(C)C)C(=O)O)CCCC3		>20 µM
Nc1nc2c(ncn2[C@H]2C=C[C@@H](CO)C2)c(=O)[nH]1		>100 µM
CN(C(=O)[C@H](Cc1ccccc1)NC(=O)NS(=O)(=O)N[C@@H](Cc1ccccc1)C(=O)N(C)c1ccccc1)c1ccccc1	XTT	100 µM
Cc1ccccc1S(=O)(=O)NC(=O)N[C@@H](Cc1ccccc1)c1nccn1-c1cccc(OCc2ccccc2)c1	XTT / absorbance	>100 µM
COc1ccc(N(C)C(=O)[C@H](Cc2ccccc2)NC(=O)c2ccccc2-c2ccccc2C(=O)N(C)[C@@H](Cc2ccccc2)C(=O)N(C)c2ccc(OC)cc2)cc1	XTT	100 µM
Cc1nc2sc3c(c2c(-c2ccc(N(C)C)nc2)c1C(OC(C)(C)C)C(=O)O)CCCC3		>20 µM
Cc1c(-c2c([C@H](OC(C)(C)C)C(=O)O)cnc3ccccc23)cc(F)c2c1CCCO2		88 µM
O=C1NC(=O)C(CSCc2ccc([N+](=O)[O-])cc2)(CSCc2ccc([N+](=O)[O-])cc2)N1		>5 µM
Cc1c(CCO)c(C2CC2)nn1CC(=O)N[C@@H](Cc1ccccc1)C(=O)N(C)c1ccc2ncccc2c1	ATP	>20 µM
COc1ccc(N(C)C(=O)[C@H](Cc2ccccc2)NC(=O)NS(=O)(=O)N[C@@H](Cc2ccccc2)C(=O)N(C)c2ccc(OC)cc2C)cc1	XTT	33.3 µM
O=C1NC(=O)C(CSCc2ccccc2)(CSCc2ccccc2)N1		>100 µM
C=CCOc1nc(N)nc2c1ncn2[C@H]1C=C[C@@H](CO)C1		>100 µM
Cc1nc2cc(N(C)C(=O)[C@H](Cc3cc(F)cc(F)c3)NC(=O)c3ccc(F)c(C(=O)N[C@@H](Cc4cc(F)cc(F)c4)C(=O)N(C)c4ccc5sc(C)nc5c4)c3)ccc2s1	XTT	100 µM
Cc1ccc(-c2c([C@H](OC(C)(C)C)C(=O)O)c(C)nc3sc4c(c23)CCCC4)c(F)c1		>20 µM
S=C1NC(=S)C(CSCc2ccccc2)(CSCc2ccccc2)N1		>16 µM
Cc1nc2ccc(-c3c(C(OC(C)(C)C)C(=O)O)c(C)nc4sc5c(c34)CCCC5)cc2s1		>20 µM
C=Cc1c(C(F)(F)F)nn(CC(=O)N[C@@H](Cc2ccccc2)C(=O)N(C)c2ccc3c(c2)OCO3)c1C	ATP	>20 µM
CCCCCOc1nc(N)nc2c1ncn2[C@H]1C=C[C@@H](CO)C1		>100 µM
O=C1NC(=O)C(CSCc2ccccn2)(CSCc2ccccn2)N1		>100 µM
COc1ccc(N(C)C(=O)[C@H](Cc2cc(F)cc(F)c2)NC(=O)CN2c3ccccc3N(CC(=O)N[C@@H](Cc3cc(F)cc(F)c3)C(=O)N(C)c3ccc(OC)cc3)S2(=O)=O)cc1	XTT	100 µM
Cc1ccccc1S(=O)(=O)NC(=O)N[C@@H](Cc1ccccc1)c1nccn1-c1ccc([NH+]([O-])O)cc1	XTT / absorbance	>100 µM
CCCOc1nc(N)nc2c1ncn2[C@@H]1C=C[C@H](CO)C1		95.5 µM
CCCN(C(=O)[C@H](Cc1cc(F)cc(F)c1)NC(=O)CS(=O)(=O)N[C@@H](Cc1cc(F)cc(F)c1)C(=O)N(CCC)c1ccc2nccnc2c1)c1ccc2nccnc2c1	XTT	33.3 µM
CCOC(C(=O)O)c1c(C)nc2sc3c(c2c1-c1ccccc1CO)CCCC3		>20 µM
O=C(N[C@@H](Cc1cc(F)cc(F)c1)c1ncccc1Br)NS(=O)(=O)c1ccccc1Cl	XTT / absorbance	>100 µM
Cc1nc2sc3c(c2c(-c2ccc(Cl)cc2O)c1[C@H](OC(C)(C)C)C(=O)O)CCCC3		>20 µM
NC(CSCc1ccccc1)(CSCc1ccccc1)C(=O)O		>100 µM
Cc1nn(CC(=O)N[C@@H](Cc2ccccc2)C(=O)N(C)c2ccc3c(c2)OCO3)c(C2CC2)c1CC(=O)O	ATP	>20 µM
Nc1ccc(CSCC2(CSCc3ccc(N)cc3)NC(=O)NC2=O)cc1		>16 µM
CCOc1nc(N)nc2c1ncn2[C@H]1C=C[C@@H](CO)C1		>100 µM

For reference, 3 entries again:

structure,read by,value
O=C1NC(=O)C(CSc2ccccc2)(CSc2ccccc2)N1,,>50 µM
CN(C(=O)[C@H](Cc1ccccc1)NC(=O)c1ccnc(N[C@@H](Cc2ccccc2)C(=O)N(C)c2ccc3scnc3c2)n1)c1ccc2scnc2c1,XTT,100 µM
Cc1nc2cc(N(C)C(=O)[C@H](Cc3cc(F)cc(F)c3)NC(=O)c3ccc(F)c(C(=O)N[C@@H](Cc4cc(F)cc(F)c4)C(=O)N(C)c4ccc5sc(C)nc5c4)c3)ccc2s1,XTT,100 µM